Measured values from several laboratories, pooled; numbers as filed in NIAID ChemDB.

Common to all: enzyme or target tests; organism: Hepatitis C virus

ICn: concentration for n% inhibition.

smiles	protein	endpoint	tested at	value
CNC(=O)c1c(-c2ccccc2)oc2ccc(OCC(F)(F)F)cc12	Nonstructural protein 5B	IC50		>30 µM
COc1cccc(-c2cc(-c3ccc(OC)c(Cl)c3)n3nc(C(=O)O)cc3n2)c1	RNA-dependent RNA polymerase	IC50		>10 µM
O=C(O)c1ccc2c(c1)nc(-c1ccc3nc(-c4cc(C(=O)N5CCCC5)ccc4-c4ccc(F)cc4)ccc3c1)n2C1CCCCC1	NS5B polymerase	inhibition	100 µM	102%
N#Cc1ccc(-c2ccc(-c3nc4cc(C(=O)O)[nH]n4c(=O)c3C3CCCCC3)cc2)cc1	RNA-dependent RNA polymerase	IC50		1–10 µM
O=C(O)c1nc(-c2sccc2CCOCc2ccccc2)[nH]c(=O)c1O	HCV polymerase	IC50		<25 µM
NCCCCC(NC(=O)c1ccc2c(c1)nc(-c1ccc3nc(-c4ccccc4)ccc3c1)n2C1CCCCC1)C(=O)O	NS5B polymerase	inhibition	100 µM	80.22%
CNC(=O)c1c(-c2ccc(F)cc2)oc2cc(N(C)S(C)(=O)=O)c(OCc3cccc(C(=O)O)c3)cc12	Nonstructural protein 5B	IC50		≤0.5 µM
O=C(O)c1cc2nc(-c3ccc(Cl)cc3)cc(-c3ccsc3)n2n1	RNA-dependent RNA polymerase	IC50		>10 µM
O=C(O)c1nc(-c2ccccc2NS(=O)(=O)c2ccc(O)cc2)[nH]c(=O)c1O	HCV polymerase	IC50		<100 µM
O=C(O)c1cc2nc(-c3ccc(C(F)(F)F)cc3)cc(-c3ccc(Oc4ccccc4)cc3)n2n1	RNA-dependent RNA polymerase	IC50		1–10 µM
O=C(O)c1ccc2c(c1)nc(-c1ccc3nc(-c4ccccc4)cc(Oc4ccc5ccc(O)cc5c4)c3c1)n2C1CCCCC1	NS5B polymerase	inhibition	100 µM	100.7%
CCC(NC(=O)Nc1ccsc1-c1nc(C(=O)O)c(O)c(=O)[nH]1)c1ccccc1	HCV polymerase	IC50		<25 µM
O=C(O)c1cc2nc(-c3ccc(Oc4cccc(Cl)c4)cc3)c(C3CCCCC3)c(=O)n2[nH]1	RNA-dependent RNA polymerase	IC50		1–10 µM
O=C(NC(Cc1ccc(C(=O)c2ccccc2)cc1)C(=O)O)c1ccc2c(c1)nc(-c1ccc3nc(-c4ccccc4)cnc3c1)n2C1CCCCC1	NS5B polymerase	inhibition	33 µM	98%
O=C(NCc1ccccc1Br)Nc1ccsc1-c1nc(C(=O)O)c(O)c(=O)[nH]1	HCV polymerase	IC50		<25 µM
O=C(O)c1cc2nc(-c3ccc(-c4cccc(OC(F)(F)F)c4)cc3)c(C3CCCCC3)c(=O)n2[nH]1	RNA-dependent RNA polymerase	IC50		1–10 µM
O=C(O)c1ccc2c(c1)nc(-c1ccc3nc(-c4ccccn4)ccc3c1)n2C1CCCCC1	NS5B polymerase	inhibition	100 µM	98.37%
CC(C)S(=O)(=O)c1csc(C(=O)Nc2ccsc2-c2nc(C(=O)O)c(O)c(=O)[nH]2)c1	HCV polymerase	IC50		<25 µM
CCOCc1cc(-c2cc3oc(-c4ccc(F)cc4)c(C(=O)NC)c3cc2OC)no1	Nonstructural protein 5B	IC50		≤0.5 µM
NC(C(=O)Nc1ccsc1-c1nc(C(=O)O)c(O)c(=O)[nH]1)c1cc(F)cc(F)c1	HCV polymerase	IC50		<25 µM
O=C(O)c1ccc2c(c1)nc(-c1ccc3nc(-c4ccccc4)cc(NCCCn4ccnc4)c3c1)n2C1CCCCC1	NS5B polymerase	inhibition	100 µM	95.64%
O=C(O)c1cc2nc(-c3ccc(C(F)(F)F)cc3)cc(-c3ccc(-c4ccccc4)cc3)n2n1	RNA-dependent RNA polymerase	IC50		1–10 µM
COc1ccc(-c2nc3ccc(-c4nc5cc(C(=O)O)ccc5n4C4CCCCC4)cc3nc2-c2ccc(OC)cc2)cc1	NS5B polymerase	inhibition	33 µM	97.35%
O=C(O)c1cc2nccc(-c3cccc(-c4cccc(Cl)c4)c3)n2n1	RNA-dependent RNA polymerase	IC50		>10 µM
O=C(O)c1ccc2c(c1)nc(-c1ccc3nc(-c4ccccc4)cc(Nc4ccccc4)c3c1)n2C1CCCCC1	NS5B polymerase	inhibition	100 µM	100.5%
O=C(NCc1ccccc1C(F)(F)F)Nc1ccccc1-c1nc(C(=O)O)c(O)c(=O)[nH]1	HCV polymerase	IC50		<100 µM
CNC(=O)c1c(-c2ccc(F)cc2)oc2cc(N(C)S(C)(=O)=O)c(OCc3ccc(C(=O)OC)cc3)cc12	Nonstructural protein 5B	IC50		≤0.5 µM

Repeating the first 4 entries:

smiles | protein | endpoint | tested at | value
CNC(=O)c1c(-c2ccccc2)oc2ccc(OCC(F)(F)F)cc12 | Nonstructural protein 5B | IC50 |  | >30 µM
COc1cccc(-c2cc(-c3ccc(OC)c(Cl)c3)n3nc(C(=O)O)cc3n2)c1 | RNA-dependent RNA polymerase | IC50 |  | >10 µM
O=C(O)c1ccc2c(c1)nc(-c1ccc3nc(-c4cc(C(=O)N5CCCC5)ccc4-c4ccc(F)cc4)ccc3c1)n2C1CCCCC1 | NS5B polymerase | inhibition | 100 µM | 102%
N#Cc1ccc(-c2ccc(-c3nc4cc(C(=O)O)[nH]n4c(=O)c3C3CCCCC3)cc2)cc1 | RNA-dependent RNA polymerase | IC50 |  | 1–10 µM

a–b is a range or a potency band. Rows are shuffled and stem from different studies. Percent inhibition refers to the dose given; in toxicity tests it is the harm to the cells. An empty or dashed field is not shown.